Assay: xn = mol fraction of the nth substance listed
Details: 101 kPa

CC[n+]1ccn(C)c1.O=S(=O)(F)[N-]S(=O)(=O)F + O=S(=O)(F)[N-]S(=O)(=O)F.[K+]
Details | electrical conductivity, x2 = 0 [S/m] | electrical conductivity, x2 = 0.1 [S/m] | electrical conductivity, x2 = 0.2 [S/m] | mass density, x2 = 0 [kg/m3] | mass density, x2 = 0.1 [kg/m3] | mass density, x2 = 0.2 [kg/m3] | viscosity, x2 = 0 [mPa·s] | viscosity, x2 = 0.1 [mPa·s] | viscosity, x2 = 0.2 [mPa·s]
258 K | – | – | 0.149 | – | – | – | – | – | –
263 K | – | 0.332 | 0.206 | – | – | – | – | – | –
268 K | 0.595 | 0.427 | 0.277 | – | – | – | – | – | –
273 K | – | 0.539 | 0.361 | – | 1504 | 1547 | – | 71 | 119
278 K | 0.88 | 0.666 | 0.461 | 1460 | 1499 | 1542 | 37.5 | 56.3 | 91.4
283 K | 1.05 | 0.808 | 0.575 | 1456 | 1495 | 1537 | 31.2 | 45.7 | 71.7
288 K | 1.23 | 0.966 | – | 1451 | 1490 | – | 26.2 | 37.5 | –
293 K | 1.43 | 1.14 | 0.85 | – | 1485 | 1528 | 22.3 | 31.4 | 46.6
298 K | 1.64 | – | 1.01 | – | – | 1523 | 19.2 | – | 39.1
303 K | – | 1.53 | 1.19 | – | 1476 | 1518 | – | 22.7 | 32.8
308 K | – | 1.75 | 1.38 | – | 1471 | 1513 | – | 19.6 | 27.7
313 K | 2.35 | 1.98 | 1.59 | – | 1466 | 1508 | 12.9 | 17 | 23.8
318 K | 2.61 | 2.22 | – | – | 1462 | – | 11.4 | 14.9 | –
323 K | 2.89 | 2.48 | – | – | 1457 | – | 10.2 | 13.1 | –
328 K | – | 2.75 | 2.29 | – | 1453 | 1494 | – | 11.6 | 15.7
333 K | – | – | 2.54 | – | – | 1490 | – | – | 13.8
338 K | 3.79 | 3.33 | 2.83 | 1406 | 1444 | 1485 | 7.45 | 9.3 | 12.2
343 K | 4.13 | 3.62 | 3.12 | 1401 | 1439 | 1480 | 6.79 | 8.38 | 10.8
348 K | 4.47 | – | 3.42 | 1397 | – | 1476 | 6.22 | – | 9.81
353 K | 4.82 | 4.27 | 3.74 | 1393 | 1430 | 1471 | 5.74 | 6.95 | 8.84
358 K | 5.19 | – | 4.06 | 1388 | – | 1467 | 5.32 | – | 7.98
363 K | 5.57 | 4.97 | 4.4 | 1384 | 1421 | 1462 | 4.96 | 5.91 | 7.31
368 K | 5.97 | 5.34 | – | 1380 | 1417 | – | 4.65 | 5.5 | –
373 K | 6.36 | 5.72 | 5.1 | – | – | – | 4.4 | 5.16 | 6.26
378 K | 6.81 | 6.13 | 5.45 | – | – | – | 4.13 | 4.8 | 5.78
383 K | 7.31 | 6.52 | 5.81 | – | – | – | 3.88 | 4.49 | 5.36
388 K | 7.86 | 6.94 | 6.18 | – | – | – | 3.66 | 4.2 | 4.98
